Compound potency records, mixed from different reports. Data source: NIAID ChemDB in PubChem.

Common to all: whole-cell or culture tests; agent: Hepatitis C virus; method: replicon; endpoint: EC50

Lines come from different laboratories, so protocols vary. Two numbers with a dash give a range or band. ECn: concentration that inhibits the pathogen or its effect by n%. An empty or dashed field is not shown.

SMILES,cells,strain,result
CN1CCN(c2cc3c(cc2F)c(=O)c(-c2noc(Cc4ccccc4)n2)cn3Cc2ccc(C(F)(F)F)cc2F)CC1,,1b,<2 µM
CNC(=O)c1c(-c2ccc(F)cc2)oc2cc(-c3ncnn3C)c(OC)cc12,Huh7,,<1 µM
C=CCCCCCCCCC1(S(=O)(=O)NC(=O)[C@]2(NC(=O)[C@@H]3C[C@@H](Oc4cc(-c5ccccc5)nc5cc(OC)ccc45)CN3C(=O)[C@@H](NC(=O)OC(C)(C)C)C(C)(C)C)C[C@@H]2C=C)CC1,Huh7,1b,0.05–0.5 µM
CN1CCN(c2cc3c(cc2F)c(=O)c(-c2noc(CC4CCCC4)n2)cn3CC2CCCCC2)CC1,,1b,<0.5 µM
C=CC1C[C@@]1(NC(=O)[C@@H]1C[C@@H](Oc2cc(-c3ccccc3)nc3cc(OC)ccc23)CN1C(=O)[C@@H](NC(=O)OCCF)C(C)(C)C)C(=O)NS(=O)(=O)C1(Cc2ccccc2)CC1,Huh7,1b,0.05–0.5 µM
CCOc1nc(N)nc2ccc(-c3ccc(C(=O)Nc4ccccc4)cc3)nc12,Huh7,,>1 µM
CNC(=O)c1c(-c2cc(F)c(F)cc2F)oc2ccc(OC)cc12,Huh7,,<30 µM
COc1cc2c(=O)c(-c3noc(CC4CCCC4)n3)cn(Cc3ccc(Cl)cc3)c2cc1OC,,1b,>10 µM
C=C[C@H]1C[C@@]1(NC(=O)[C@@H]1C[C@@H](Oc2cc(-c3ccccc3)nc3cc(OC)ccc23)CN1C(=O)[C@@H](NC(=O)OC(C)(C)C)C(C)(C)C)C(=O)NS(=O)(=O)C1(CC#CCC)CC1,Huh7,1b,<0.05 µM
CN1CCN(c2cc3c(cc2F)c(=O)c(-c2noc(Cc4ccc(F)cc4)n2)cn3Cc2cccc(C(F)(F)F)c2)CC1,,1b,<0.5 µM
CNC(=O)c1c(-c2ccc(F)cc2)oc2cc(-c3cn[nH]c3C)c(OC(C)C)cc12,Huh7,,<1 µM
CCOc1nc(NCc2ccc(F)cc2)nc2ccc(-c3ccc(NC(=O)CO)cc3)nc12,,,<0.1 µM
COc1cc2c(=O)c(-c3noc(Cc4ccc(C)cc4)n3)cn(Cc3ccc(Cl)cc3)c2cc1OC,,1b,>10 µM
CCNc1nc(NCc2ccc(F)cc2)nc2ccc(-c3ccc(F)cc3)nc12,,,<0.1 µM
CCNc1cc2oc(-c3ccc(F)cc3)c(C(=O)NC)c2cc1OC(C)C,Huh7,,<1 µM
C=C[C@H]1C[C@@]1(NC(=O)[C@@H]1C[C@@H](Oc2cc(-c3ccccc3)nc3cc(OC)ccc23)CN1C(=O)[C@@H](NC(=O)OC1CCCC1)C(C)(C)C)C(=O)NS(=O)(=O)C1(Cc2ccccc2)CC1,Huh7,1b,0.05–0.5 µM
CN1CCN(c2cc3c(cc2F)c(=O)c(-c2noc(C(CC(=O)O)c4ccccc4)n2)cn3Cc2ccc(Cl)cc2)CC1,,1b,>10 µM
CCOc1nc(N)nc2ccc(-c3ccc(NC(=O)[C@H](C)N)cc3)nc12,Huh7,,<0.3 µM
CNC(=O)c1c(-c2ccc(F)cc2)oc2cc(N(C)S(C)(=O)=O)c(OCCN3CCOCC3)cc12,Huh7,,<1 µM
CCCC1(S(=O)(=O)NC(=O)[C@]2(NC(=O)[C@@H]3C[C@@H](Oc4cc(-c5ccccc5)nc5cc(OC)ccc45)CN3C(=O)[C@@H](NC(=O)OC(C)(C)C)C(C)(C)C)CC2C2CC2)CC1,Huh7,1b,0.05–0.5 µM
CN1CCCC1CCNC(=O)c1ccc(-c2ccc3nc(N)nc(O[C@H]4CCOC4)c3n2)cc1,Huh7,,>1 µM
CC(C)(c1ccc(F)cc1)c1nc(-c2cn(Cc3ccc(C(F)(F)F)cc3)c3cc(N4CCNC(=O)C4)c(F)cc3c2=O)no1,,1b,<0.5 µM
Fc1ccc(CNc2nc(NCC(F)(F)F)c3nc(-c4ccc(F)cc4)ccc3n2)cc1,,,<0.1 µM
CNC(=O)c1c(-c2ccc(F)cc2)oc2cc(C)c(OC(C)C)cc12,Huh7,,<10 µM
NS(=O)(=O)c1cc(-c2ccc3nc(NCc4ccc(F)cc4)nc(NCC(F)(F)F)c3n2)ccc1F,,,<0.1 µM
CC(C)(c1ccccc1)c1nc(-c2cn(Cc3ccc(C(F)(F)F)cc3)c3cc(N4CCS(=O)CC4)c(F)cc3c2=O)no1,,1b,<2 µM
Nc1nc(O[C@H]2CCOC2)c2nc(-c3ccc(C(=O)NCCN4CCOCC4)cc3)ccc2n1,Huh7,,<0.3 µM
C=CC1C[C@@]1(NC(=O)[C@@H]1C[C@@H](Oc2cc(-c3ccccc3)nc3cc(OC)ccc23)CN1C(=O)[C@@H](NC(=O)Oc1ccccc1OC)C(C)(C)C)C(=O)NS(=O)(=O)C1(Cc2ccccc2)CC1,Huh7,1b,0.5–5 µM
CCOc1nc(NCc2ccc(S(N)(=O)=O)cc2)nc2ccc(-c3ccc(NC(=O)C4CCNC4)c(F)c3)nc12,,,<0.1 µM
CNC(=O)c1c(-c2ccc(F)cc2)oc2cc(N3CCCC3)c(OC)cc12,Huh7,,<1 µM